Pooled drug test results. Numbers come from NIAID ChemDB, via PubChem.

Common to all: whole-cell or culture tests; organism: Encephalitozoon intestinalis

Percent inhibition refers to the dose given; in toxicity tests it is the harm to the cells.

| compound | measure | dose | cell line | value |
|---|---|---|---|---|
| CCOc1ccc(OCC)c(NCc2cnc3nc(N)nc(N)c3c2C)c1 | inhibition | 0.1 µg/mL | RK-13 | 6% |
| COC(=O)Nc1nc2ccc(C(=O)c3cccs3)cc2[nH]1 | EC50 |  | E6 HOST CELLS | 0.03 µg/mL |
| COC(=O)Nc1nc2ccc(C(=O)c3ccccc3)cc2[nH]1 | inhibition | 0.1 µg/mL | RK-13 | 69.2% |
| CCn1nc(C(=O)O)c(=O)c2cc3c(cc21)OCO3 | MIC50 |  |  | 55 µM |
| c1ccc2[nH]c(-c3cscn3)nc2c1 | inhibition | 0.1 µg/mL | RK-13 | 47.1% |
| CO[C@H]1[C@@H](OC(=O)/C=C/C=C/C=C/C=C/C(=O)O)CC[C@@]2(CO2)[C@@H]1[C@@]1(C)O[C@@H]1CC=C(C)C | EC50 |  |  | ≥0.05 µM |
| CC1COc2c(N3CCN(C)CC3)c(F)cc3c(=O)c(C(=O)O)cn1c23 | MIC50 |  |  | 2 µM |
| CCCCc1ccc2nc(NC(=O)OC)[nH]c2c1 | EC50 |  | E6 | 0.002 µg/mL |
| CO[C@H]1[C@@H](OC(=O)/C=C/C=C/C=C/C=C/C(=O)O)CC[C@@]2(CO2)[C@@H]1[C@@]1(C)O[C@@H]1CC=C(C)C | MIC |  |  | 0.000515 µg/mL |
| CCOC(=O)Nc1cc2oc(=O)c(-c3ccccc3)nc2c(N)n1 | inhibition | 0.001 µg/mL | RK-13 | 11.1% |
| CC1CCc2cc(F)cc3c(=O)c(C(=O)O)cn1c23 | MIC50 |  |  | 359 µM |
| CNC1CCc2cc(OC)c(OC)c(OC)c2-c2ccc(OC)c(=O)cc21 | inhibition | 0.01 µg/mL | RK-13 | 34.4% |
| COC(=O)Nc1nc2ccc(C(=O)C3CC3)cc2[nH]1 | EC50 |  | E6 HOST CELLS | 0.03 µg/mL |
| CCCSc1ccc2nc(NC(=O)OC)[nH]c2c1 | MIC50 |  |  | 0.011 µg/mL |
| CCCS(=O)c1ccc2nc(NC(=O)OC)[nH]c2c1 | EC50 |  | E6 | 0.003 µg/mL |
| CO[C@H]1[C@@H](OC(=O)/C=C/C=C/C=C/C=C/C(=O)O)CC[C@@]2(CO2)[C@@H]1[C@@]1(C)O[C@@H]1CC=C(C)C | inhibition | 0.001 µg/mL | RK-13 | 68.9% |
| O=C1N[C@@H]2C(c3cc4c(c(O)c31)OCO4)[C@@H](O)[C@H](O)[C@@H](O)[C@H]2O | EC50 |  | RK-13 | 0.18 µM |
| COC(=O)Nc1nc2ccc(C(=O)c3ccccc3)cc2[nH]1 | EC50 |  | E6 HOST CELLS | 0.2 µg/mL |

2 of the rows above, restated:

compound | measure | dose | cell line | value
CC1CCc2cc(F)cc3c(=O)c(C(=O)O)cn1c23 | MIC50 |  |  | 359 µM
CNC1CCc2cc(OC)c(OC)c(OC)c2-c2ccc(OC)c(=O)cc21 | inhibition | 0.01 µg/mL | RK-13 | 34.4%

Rows are shuffled and stem from different studies. An empty or dashed field is not shown. MIC50, MIC90 and the like: level of inhibition, or share of isolates inhibited. ECn is the concentration giving n% inhibition of infection, replication or growth.